Assay results published in PMC3057164, “Caffeoylquinic Acids Are Major Constituents with Potent Anti-Influenza Effects in Brazilian Green Propolis Water Extract” (Evidence-based Complementary and Alternative Medicine : eCAM, 2011).

Tested on: influenza A virus strain A/WSN/33 (H1N1)
Conditions: WSN/33 infected MDCK cells, Figures 2(b)-2(h)

baccharin
Effect on cell survival rate of virus-infected cells (effective / ineffective): did not have any cell surviving activity
